Results of unrelated studies side by side (data: NIAID ChemDB).

Common to all: enzyme or target tests; species: Herpes simplex virus 1; target: Thymidine kinase

An empty or dashed field is not shown. Conditions beyond the fields shown may differ between rows. ICn is the concentration giving n% inhibition.

SMILES	endpoint	strain	value
CCCCCC(=O)OC/C=C/Cn1cc(C)c(=O)[nH]c1=O	IC50	-	11 µM
CCc1cn([C@@H]2O[C@H](CO)[C@@H](O)[C@@H]2F)c(=O)nc1N	IC50	F	>200 µM
Cc1cn([C@H]2C[C@H](O)[C@@H](CNS(=O)(=O)CCCS(=O)(=O)O)O2)c(=O)[nH]c1=O	IC50	-	>200 µM
CCc1cn([C@H]2C[C@H](O)[C@@H](CNC(=O)c3ccccc3)O2)c(=O)[nH]c1=O	IC50	-	3.1 µM
Cc1cn([C@H]2C[C@H](O)[C@@H](CNS(=O)(=O)c3ccc([N+](=O)[O-])cc3)O2)c(=O)[nH]c1=O	IC50	-	127 µM
CCc1cn([C@H]2C[C@H](O)[C@@H](CNC(=O)[C@@H](C)Oc3ccc(Cl)cc3Cl)O2)c(=O)[nH]c1=O	IC50	-	0.03 µM
C[C@@H](O)Cn1cnc2c(=S)nc[nH]c21	Ki	-	1300 µM
Cc1cn(C(CCO)OCCO)c(=O)[nH]c1=O	Ki	-	219 µM
Nc1nc(=O)n([C@@H]2O[C@H](CO)[C@@H](O)[C@@H]2F)cc1/C=C/C(=O)O	IC50	F	>200 µM
Cc1cn([C@H]2C[C@H](O)[C@@H](CNS(=O)(=O)c3ccc(Br)cc3)O2)c(=O)[nH]c1=O	IC50	-	171 µM
CCc1cn([C@H]2C[C@H](O)[C@@H](CNC(=O)C(C)Oc3ccccc3)O2)c(=O)[nH]c1=O	IC50	-	0.18 µM
Cc1cn(C(CCO)SCCO)c(=O)[nH]c1=O	Ki	-	256 µM
C/C=C/c1cn([C@H]2C[C@H](O)[C@@H](CO)O2)c(=O)[nH]c1=O	Ki	-	0.2 µM
Nc1nc2c(ncn2C/C=C\CO)c(=O)[nH]1	Ki	C42	7 µM
C#Cc1cn([C@@H]2O[C@H](CO)[C@@H](O)[C@@H]2F)c(=O)nc1N	IC50	F	>200 µM
C[C@@H](O)Cn1cnc2c(=O)[nH]c(N)nc21	Ki	-	900 µM
O=c1[nH]c(=O)n([C@@H]2O[C@H](CO)[C@@H](O)[C@@H]2F)cc1/C=C/Br	IC50	F	<200 µM
O=c1[nH]c(=O)n(C/C=C\COC(c2ccccc2)(c2ccccc2)c2ccccc2)cc1/C=C/Br	IC50	-	>100 µM
C[C@@H](O)Cn1cnc2c(=S)nc(N)[nH]c21	Ki	-	800 µM
Cc1cn([C@H]2C[C@H](O)[C@@H](CNS(=O)(=O)C(F)(F)F)O2)c(=O)[nH]c1=O	IC50	-	>200 µM
Cc1cn(C(CCN=[N+]=[N-])OCCO)c(=O)[nH]c1=O	Ki	-	155 µM
C#C[C@H]1O[C@@H](n2cc(C)c(=O)[nH]c2=O)C[C@@H]1O	IC50	TR7	2 µM
CCCCCCCCCCCC(=O)OC/C=C/Cn1cc(C)c(=O)[nH]c1=O	IC50	-	19 µM
O=c1[nH]c(=O)n([C@@H]2C[C@@H](O)[C@H](CO)O2)cc1C(F)(F)F	IC50	-	0.5 µM
CCc1cn([C@H]2C[C@H](O)[C@@H](COS(=O)(=O)c3ccc(C)cc3)O2)c(=O)[nH]c1=O	IC50	-	12.7 µM
Nc1nc(=O)n([C@@H]2O[C@H](CO)[C@@H](O)[C@@H]2F)cc1/C=C/I	IC50	F	>200 µM
Nc1nc2c(ncn2CCC(O)CO)c(=O)[nH]1	Ki	-	1.53 µM
Nc1nc2c(ncn2CC(CO)CCO)c(=O)[nH]1	Ki	C42	0.6 µM
CC(=O)NC[C@H]1O[C@@H](n2cc(I)c(=O)[nH]c2=O)C[C@@H]1O	IC50	-	>200 µM
Nc1nc2c(ncn2CCCCO)c(=O)[nH]1	Ki	-	2.06 µM

A second listing of 2 rows from above:

{"SMILES": "O=c1[nH]c(=O)n(C/C=C\\COC(c2ccccc2)(c2ccccc2)c2ccccc2)cc1/C=C/Br", "endpoint": "IC50", "value": ">100 µM"}
{"SMILES": "C[C@@H](O)Cn1cnc2c(=O)[nH]c(N)nc21", "endpoint": "Ki", "value": "900 µM"}